{
  "source": "paper PMC11109247",
  "about": "(Nature Communications, 2024)",
  "target": "full-length NiVBD G displayed on the surface of 293T cells (Nipah virus, Bangladesh (GenBank …, UniProt Q4VCP5, strain))",
  "experiment": "cell-based or functional assay",
  "data": [
    {"binder": "1E5 (chimeric macaque-human IgG1 antibody) (antibody, V domains shown) VH: QVQLQESGPGVVKPSETLSLTCAVSGGSISDTYRWSWIRQPPGKGLEWIGYIYGSATSTYYNPSLSSRVTISKDMSKNQFSLNLNSVTAADTAVYYCARDYQYYYSGSYPTPHNWFDVWGPGVLVTVSS VL: DIQMTQSPSSLSASVGDRVTITCRASQGIIDYLSWYQQKPGKAPKLLISTASNLESGVPSRFSGSGSGTEFTLTISSLQPEDFATYSCLQGYTTPYTFGQGTKVEIK", "values": [
      {"measurement": "Live virus neutralization IC50 (plaque reduction), NiVBD", "value": 0.03, "unit": "mg/L"}
    ]}
  ]
}
